Compound potency records, mixed from different reports. Data source: NIAID ChemDB in PubChem.

All rows: cytotoxicity tests; cells: C8166; read-out: CC50

CCn is the concentration with n% toxicity to the cells. Lines come from different laboratories, so protocols vary.

C=C(C)[C@@]12OC3(c4ccccc4)O[C@@H]1[C@@H]1[C@H](O)[C@](O)(CO)[C@@H](O)[C@]4(O)C(=O)[C@@H](C)C=C4[C@@]1(O3)[C@H](C)[C@H]2OC(=O)c1ccccc1 ; read by: MTT ; result: >200 µM
COc1ccc(C2CC(=O)c3c(O)cc(O[C@@H]4O[C@H](COC5O[C@@H](C)[C@H](O)[C@@H](O)[C@H]5O)[C@@H](O)[C@H](O)[C@H]4O)cc3O2)cc1 ; result: 40 µg/mL
C[C@H](Cn1cnc2c(N)nc(N)nc21)OCP(=O)(O)O ; result: >300 µM
C=C(C)C1Cc2cc(C(C)=O)c(O)cc2O1 ; result: 40 µg/mL
C[C@@H](Cn1cnc2c(N)ncnc21)OCP(=O)(O)O ; result: >300 µM
C=CCN(/C=C/c1ccccc1Br)C(C)=O ; read by: MTT ; result: 337 µM
C=C(C)[C@@]12OC3(c4ccccc4)O[C@@H]1[C@@H]1[C@H](O)[C@](O)(CO)[C@@H](O)[C@]4(O)C(=O)C(C)=C[C@H]4[C@@]1(O3)[C@H](C)[C@H]2OC(=O)c1ccccc1 ; read by: MTT ; result: >200 µM
Oc1cc(O)c2c(c1)O[C@H](c1cc(O)c(O)c(O)c1)[C@@H](O)C2 ; result: >80 µg/mL
Cc1cn([C@H]2C[C@H](N=[N+]=[N-])[C@@H](CO)O2)c(=O)[nH]c1=O ; result: 2905 µM
Cc1cn([C@H]2C[C@H](N=[N+]=[N-])[C@@H](CO)O2)c(=O)[nH]c1=O ; result: 403 µM
Cc1cn([C@H]2C[C@H](N=[N+]=[N-])[C@@H](CO)O2)c(=O)[nH]c1=O ; read by: MTT ; result: >509 µM
C=C(C)C(O)Cc1cc(C(C)=O)ccc1O ; result: 50 µg/mL
O=c1cc(-c2ccccc2)oc2cc(O)cc(O)c12 ; result: 50 µg/mL
C=C(C)[C@@]1(OC(=O)c2ccccc2)[C@H](OC(C)=O)[C@@H]2[C@H](OC(C)=O)[C@@]3(C)O[C@@]4([C@@H]3OC(C)=O)[C@@H](OC(=O)c3ccccc3)[C@@H](C)C[C@H]4[C@@]2(O)[C@H](C)[C@@H]1OC(C)=O ; read by: MTT ; result: >200 µM
CCN(/C=C/c1ccccc1Cl)C(C)=O ; read by: MTT ; result: 424 µM
COc1cc(-c2oc3cc(O[C@@H]4O[C@H](CO)[C@@H](O)[C@H](O)[C@H]4O)cc(O)c3c(=O)c2O[C@@H]2O[C@H](CO[C@@H]3O[C@@H](C)[C@H](O)[C@@H](O)[C@H]3O)[C@@H](O)[C@H](O)[C@H]2O)ccc1O ; result: 100 µg/mL
C=C(C)[C@@]1(OC(=O)c2ccccc2)[C@H](OC(C)=O)[C@@H]2[C@H](OC(C)=O)[C@@]3(C)O[C@@]4([C@@H]3O)[C@@H](O)[C@@H](C)C[C@H]4[C@@]2(O)[C@H](C)[C@@H]1OC(C)=O ; read by: MTT ; result: >200 µM
CC(=O)N(/C=C/c1ccccc1Br)Cc1ccccc1 ; read by: MTT ; result: 51 µM
C=C(C)C1Oc2ccc(C(C)=O)cc2C1OC(C)=O ; result: 50 µg/mL

Repeating the final 2 entries:

{"structure": "CC(=O)N(/C=C/c1ccccc1Br)Cc1ccccc1", "read by": "MTT", "result": "51 µM"}
{"structure": "C=C(C)C1Oc2ccc(C(C)=O)cc2C1OC(C)=O", "result": "50 µg/mL"}